PubChem BioAssay AID624099 | ICCB-Longwood | 2012

Aim: 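Knock-downs relieving repression by E2 of an HPV18 LCR luciferase reporter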 (primary screen)
System: human C33A cervical carcinoma cells (HPV-negative) stably expressing BPV1 E2 and an HPV18 LCR luciferase reporter
Knock-down reagent: siRNA pool against human genes, 40 nM
Duration: 72 h
Read-out: 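HPV18 LCR reporter light per well, converted to plate-wise z-scores that exclude control wells, and averaged over triplicate plates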
Direction: mean z-score and z-score: higher = stronger reporter signal, weaker E2 silencing
Hit rule: 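Hit if mean z-score reaches 2 and two or more of three replicate z-scores also reach 2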
Shown is a random part of about 21,000 deposited reagents. 497 of them (2.4%) count as active. 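Higher z means weaker E2 silencing; only reporter increases were scored, and knock-downs that hurt cell survival may mask genuine repressor factors.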

no.	gene	mean z-score	z-score, replicate A	z-score, replicate B	z-score, replicate C	activity call
1	CRYBA2 (crystallin beta A2)	-0.18	-0.32	0.13	-0.34	inactive
2	TREM2 (triggering receptor expressed on myeloid cells 2)	-1	-0.95	-1.19	-0.87	inactive
3	LRRFIP1 (LRR binding FLII interacting protein 1)	0.89	1.02	0.84	0.82	inactive
4	FAM181B (family with sequence similarity 181 member B)	0.5	0.42	0.53	0.55	inactive
5	RNF125 (ring finger protein 125)	0.56	0.45	0.59	0.65	inactive
6	B3GNT8	1.59	1.44	1.75	1.58	inactive
7	PIK3R4 (phosphoinositide-3-kinase regulatory subunit 4)	0.31	0.61	0.41	-0.09	inactive
8	CD22 (CD22 molecule)	1.49	1.47	1.51	1.51	inactive
9	NEUROD1 (neuronal differentiation 1)	-0.6	-0.62	-0.79	-0.39	inactive
10	EFHC2 (EF-hand domain containing 2)	0.02	-0.24	0.19	0.12	inactive
11	LOC400567 (retired record)	0.2	0.41	0.31	-0.12	inactive
12	YIPF7 (Yip1 domain family member 7)	-0.4	-0.3	-0.13	-0.78	inactive
13	IMP3 (IMP U3 small nucleolar ribonucleoprotein 3)	-1.04	-1.11	-1.33	-0.69	inactive
14	SAMD8 (sterile alpha motif domain containing 8)	-1.84	-2.1	-2.23	-1.19	inactive
15	ZNF384 (zinc finger protein 384)	-0.02	0.08		-0.13	inactive
16	NSMCE1-DT (NSMCE1 divergent transcript)	-1.17	-0.93	-1.24	-1.33	inactive
17	DNAJC17 (DnaJ heat shock protein family (Hsp40) member C17)	2.41	2.41	2.34	2.49	active
18	ZNF35 (zinc finger protein 35)	-1.06	-0.88	-1.28	-1.02	inactive
19	ALDH3B1 (aldehyde dehydrogenase 3 family member B1)	-1.58	-1.46	-1.43	-1.84	inactive
20	LOC254027 (retired record)	-0.05	0	-0.16	0.01	inactive
21	RTN2 (reticulon 2)	0.32	-0.13	0.63	0.47	inactive
22	ZNF180 (zinc finger protein 180)	0.72	0.5	0.77	0.9	inactive
23	CTBP1 (C-terminal binding protein 1)	0.51	0.53	0.53	0.47	inactive
24	STRA8 (stimulated by retinoic acid 8)	0.98	1.12	1.16	0.67	inactive
25	SLC25A25-AS1 (SLC25A25 antisense RNA 1)	-0.14	-0.74	0.12	0.19	inactive
26	TGFB2 (transforming growth factor beta 2)	-0.36	0.02	-0.47	-0.63	inactive
27	PPP3CB (protein phosphatase 3 catalytic subunit beta)	2.35	2.35	2.6	2.09	active
28	FAM27E3 (family with sequence similarity 27 member E3)	0.47	0.14	0.48	0.81	inactive
29	LOC285889	-0.59	-0.5	-0.64	-0.62	inactive
30	SCUBE3 (signal peptide, CUB domain and EGF like domain containing 3)	-2.05	-1.87	-2.24	-2.13	inactive
31	CHP2 (calcineurin like EF-hand protein 2)	-0.51	-1.01	-0.47	-0.06	inactive
32	LOC399900	-0.37	-0.18	-0.57	-0.37	inactive
33	EDDM3B (epididymal protein 3B)	0.71	0.66	0.59	0.87	inactive
34	VENTX (VENT homeobox)	0.51	0.59	0.54	0.4	inactive
35	DCC (DCC netrin 1 receptor)	-0.54	-0.55	-0.48	-0.6	inactive
36	PGS1 (phosphatidylglycerophosphate synthase 1)	-0.27	-0.12	-0.66	-0.04	inactive
37	NLRP13 (NLR family pyrin domain containing 13)	0.64	0.67	0.61	0.63	inactive
38	RAD51D (RAD51 paralog D)	-0.81	-0.93	-0.69	-0.81	inactive
39	STK11 (serine/threonine kinase 11)	-1.01	-0.88	-1.04	-1.11	inactive

Reformatted: 6 of the entries above.
PIK3R4 (phosphoinositide-3-kinase regulatory subunit 4) → mean z-score: 0.31; z-score, replicate A: 0.61; z-score, replicate B: 0.41; z-score, replicate C: -0.09; activity call: inactive
CD22 (CD22 molecule) → mean z-score: 1.49; z-score, replicate A: 1.47; z-score, replicate B: 1.51; z-score, replicate C: 1.51; activity call: inactive
NEUROD1 (neuronal differentiation 1) → mean z-score: -0.6; z-score, replicate A: -0.62; z-score, replicate B: -0.79; z-score, replicate C: -0.39; activity call: inactive
EFHC2 (EF-hand domain containing 2) → mean z-score: 0.02; z-score, replicate A: -0.24; z-score, replicate B: 0.19; z-score, replicate C: 0.12; activity call: inactive
LOC400567 (retired record) → mean z-score: 0.2; z-score, replicate A: 0.41; z-score, replicate B: 0.31; z-score, replicate C: -0.12; activity call: inactive
YIPF7 (Yip1 domain family member 7) → mean z-score: -0.4; z-score, replicate A: -0.3; z-score, replicate B: -0.13; z-score, replicate C: -0.78; activity call: inactive
